Values of other authors, collected in patent US20170369677A1, “MATERIALS FREE OF ENDOCRINE DISRUPTIVE ACTIVITY” (CertiChem, Inc., priority 2006, published 2017).

Details: statement in words

## Cc1cc(C(C)(C)C)c(O)c(C(C)(C)C)c1 [BHT, Butylated hydroxytoulene]
  toxic effects stated in text: other toxic activity
